# Results published in patent US4447356A, “Conotoxins” (dated 1984).
# Tests used:
# [1] = system: cutaneous pectoris muscle of small grass frogs (Rana pipiens); experiment: isolated neuromuscular preparation, physiological mode of action; settings: frog nerve-muscle preparation; for inhibition of nerve or muscle action potential propagation: 15°-20° C., at the toxin concentrations used; for site of action: various conditions of stimulation
# [2] = system: cutaneous pectoris muscle of small grass frogs (Rana pipiens); settings: frog nerve-muscle preparation
smiles,measurement,setting,value
C[C@@H]1NC(=O)[C@@H]2CCCN2C(=O)[C@H](CC(N)=O)NC(=O)[C@@H]2CSSC[C@@H](C(N)=O)NC(=O)[C@H](CO)NC(=O)[C@H](Cc3ccc(O)cc3)NC(=O)[C@H](Cc3c[nH]cn3)NC(=O)[C@H](CCCNC(=N)N)NC(=O)CNC(=O)[C@H](CSSC[C@H](NC(=O)[C@@H](N)CCC(=O)O)C(=O)N2)NC1=O,inhibition of nerve or muscle action potential propagation,[1],no detectible inhibition
same,site of action,[1],act at the muscle end plate region
C[C@@H]1NC(=O)[C@@H]2CCCN2C(=O)[C@H](CC(N)=O)NC(=O)[C@@H]2CSSC[C@@H](C(=O)NCC(=O)N[C@@H](CCCCN)C(N)=O)NC(=O)[C@H](CO)NC(=O)[C@H](Cc3ccc(O)cc3)NC(=O)[C@H](Cc3c[nH]cn3)NC(=O)[C@H](CCCNC(=N)N)NC(=O)CNC(=O)[C@H](CSSC[C@H](NC(=O)[C@@H](N)CCC(=O)O)C(=O)N2)NC1=O,inhibition of nerve or muscle action potential propagation,"[2]; 15°-20° C., at the toxin concentrations used",no detectible inhibition
same,site of action,[2]; various conditions of stimulation,act at the muscle end plate region
C[C@@H]1NC(=O)[C@@H]2CCCN2C(=O)[C@H](Cc2c[nH]cn2)NC(=O)[C@@H]2CSSC[C@@H](C(N)=O)NC(=O)[C@H](CO)NC(=O)[C@H](Cc3ccccc3)NC(=O)[C@H](Cc3c[nH]cn3)NC(=O)[C@H](CCCCN)NC(=O)CNC(=O)[C@H](CSSC[C@H](NC(=O)[C@@H](N)CCC(=O)O)C(=O)N2)NC1=O,inhibition of nerve or muscle action potential propagation,[1],no detectible inhibition
same,site of action,[1],act at the muscle end plate region

# Where two headings read alike, the source gives them in different places.
